For one molecule, IC50 results are on record in ChEMBL document CHEMBL5247624, “N-sulfonylpiperidinedispiro-1,2,4,5-tetraoxanes exhibit potent in vitro antiplasmodial activity and in vivo efficacy in mice infected with P. berghei ANKA” (Eur J Med Chem, 2022).

This test concerns Plasmodium falciparum. Put plainly: Antiplasmodial activity against erythrocytic stage of chloroquine-sensitive Plasmodium falciparum 3D7 assessed as inhibition of parasite growth incubated for 3 days by HRP2-ELISA assay. (ELISA stands for enzyme-linked immunosorbent assay.)

For orientation: IC50 means the concentration needed to halve the response being measured. In the case of `C1CCC2(CC1)OOC1(CCCCC1)OO2`, the IC50 amounted to 21.9 nM.
